A mixed list of measured activities; the numbers were collected in NIAID ChemDB.

Shared fields: tests in culture; species: HIV-2; endpoint: EC50

ECn is the concentration giving n% inhibition of infection, replication or growth.

structure | strain or isolate | cells | read by | result
C=C1[C@H](CO)[C@H]1Cn1cnc2c(N)ncnc21 | - | - | - | >100 µM
Cc1ccc(C)c(CSc2ncccc2O)c1 | ROD | CEM | syncytia | >4 µg/mL
COC(=O)c1ccccc1S(=O)(=O)c1ccsc1N | ROD | CEM + CEM/O | cytopathic effect / MTT | 55 µg/mL
Cc1ccc(C)c(C(c2ccccc2)S(=O)(=O)c2cccc[n+]2[O-])c1 | ROD | CEM | syncytia | >20 µg/mL
O=C1Nc2sccc2S(=O)(=O)c2ccccc21 | ROD | CEM + CEM/O | cytopathic effect / MTT | >200 µg/mL
C=C1[C@H](CO)[C@H]1Cn1cnc2ncnc(Cl)c21 | - | - | - | >100 µM
COC(=O)c1ccccc1S(=O)(=O)c1cc(Br)sc1NC=O | ROD | CEM + CEM/O | cytopathic effect / MTT | >8 µg/mL
O=C(O)c1cccc(Cc2cccc(C(=O)O)c2O)c1O | ROD | MOLT-4/HUT-78 | syncytia | 9 µg/mL
Cc1cc(C)c(CS(=O)c2cccc[n+]2[O-])c(C)c1 | ROD | MAGI | β-galactosidase | 20 µg/mL
Cc1cn([C@H]2C[C@H](N=[N+]=[N-])[C@@H](CO)O2)c(=O)[nH]c1=O | ROD | C8166 | cytopathic effect | 0.00307 µg/mL
CCCCCCCCCCCC(=O)Oc1ccc(COP(=O)(OCc2ccc(OC(=O)CCCCCCCCCCC)cc2)OP(=O)(O)OC[C@@H]2C=C[C@H](n3cc(C)c(=O)[nH]c3=O)O2)cc1 | ROD | CEM/TK- | syncytia / microscopy | 0.23 µM
C=C(C)[C@]1(O)C[C@@H](C)[C@@]2(O)[C@H]([C@H]1OC(=O)/C=C/C=C/CCCCC)[C@@H]1O[C@]1(CO)[C@@H](O)[C@]1(O)C(=O)C(C)=C[C@H]12 | ROD | C8166 | syncytia | 0.03132 µM
C=C1[C@H](CO)[C@H]1Cn1cnc2c(N)nc(N)nc21 | - | - | - | >100 µM
CSCO[C@]1(C)COC(C)(CC(=O)OC[C@@H]2C=C[C@H](n3cnc4c(N)ncnc43)O2)C1 | - | CEM + CEM/O | cytopathic effect | 40 µM
COc1cc(C)cc2c(-c3c(O)cc(O)c4c3C[C@H](C)N[C@H]4C)cc(-c3cc(-c4c(O)cc(O)c5c4C[C@H](C)N[C@H]5C)c4cc(C)cc(OC)c4c3O)c(O)c12 | NIH-DZ | MT-2 | cytopathic effect / XTT | >250 µM
Cc1ccc(C)c(C(C)Sc2cccc[n+]2[O-])c1 | ROD | CEM | syncytia | >20 µg/mL
O=C(Nc1sc(Br)cc1S(=O)(=O)c1ccc(Cl)cc1)C(F)(F)F | ROD | CEM + CEM/O | cytopathic effect / MTT | >8 µg/mL
N#C/C(=C/c1ccccc1)Sc1cccc[n+]1[O-] | ROD | CEM | syncytia | >4 µg/mL
CCCCCCCCCCCCCC(=O)Oc1ccc(COP(=O)(OCc2ccc(OC(=O)CCCCCCCCCCCCC)cc2)OP(=O)(O)OC[C@@H]2C=C[C@H](n3cc(C)c(=O)[nH]c3=O)O2)cc1 | ROD | CEM/TK- | syncytia / microscopy | 1.2 µM
Cc1ccc(C)c(CSc2ccc(Cl)c[n+]2[O-])c1 | ROD | CEM | syncytia | >100 µg/mL
Nc1ncnc2c1ccn2[C@H]1C=C[C@@H](CO)C1 | D194 | PBMC | RT activity | 0.35 µM
Cc1ccc[n+]([O-])c1S(=O)(=O)Cc1ccccc1Cl | ROD | CEM | syncytia | >4 µg/mL
C=C1[C@H](CO)[C@H]1Cn1cnc2c(Cl)ncnc21 | - | - | - | >100 µM
CCCCCCC(=O)Oc1ccc(COP(=O)(OCc2ccc(OC(=O)CCCCCC)cc2)OP(=O)(O)OC[C@@H]2C=C[C@H](n3cc(C)c(=O)[nH]c3=O)O2)cc1 | ROD | CEM/TK- | syncytia / microscopy | 1.2 µM
Cc1ccc(C(C)S(=O)c2cccc[n+]2[O-])c(Cl)c1 | ROD | CEM | syncytia | >0.8 µg/mL
O=C(O)c1cc(C(c2ccc(O)c(C(=O)O)c2)c2ccc(O)c(C(=O)O)c2)ccc1O | ROD | MOLT-4/HUT-78 | syncytia | 10 µg/mL
Cc1ccc(C)c(C(Cc2ccccc2)Sc2cccc[n+]2[O-])c1 | ROD | CEM | syncytia | >4 µg/mL
CCCCCCNP(=O)(OC[C@H]1O[C@@H](n2cc(C)c(=O)[nH]c2=O)C[C@@H]1N=[N+]=[N-])Oc1ccccc1 | ROD | CEM + CEM/O | - | >89 µM
O=C(Nc1sc(I)cc1S(=O)(=O)c1ccc(Cl)cc1)C(F)(F)F | ROD | CEM + CEM/O | cytopathic effect / MTT | >8 µg/mL
O=C(O)C1=CC(=C(c2ccc(O)c(C(=O)O)c2)c2ccc(O)c(C(=O)O)c2)C=C(Cc2ccc(O)c(C(=O)O)c2)C1=O | ROD | MOLT-4/HUT-78 | syncytia | 1 µg/mL
COc1ccc(CS(=O)(=O)c2cc(C(C)(C)C)cc[n+]2[O-])cc1 | ROD | CEM | syncytia | >20 µg/mL
COC(=O)[C@@H](C)NP(=O)(OC[C@@H]1C=C[C@H](n2cc(C)c(=O)[nH]c2=O)O1)Oc1ccccc1 | ROD | CEM + CEM/0 | - | 2 µM
Cc1c(Cl)c(Cl)c(CS(=O)(=O)c2cccc[n+]2[O-])c(Cl)c1Cl | ROD | CEM | syncytia | ≥0.8 µg/mL
Cc1ccc(S(=O)(=O)c2ccsc2NC(=O)C(F)(F)F)cc1 | ROD | CEM + CEM/O | cytopathic effect / MTT | >8 µg/mL
C=CCC(c1cc(C)ccc1C)S(=O)(=O)c1cccc[n+]1[O-] | ROD | CEM | syncytia | ≥20 µg/mL
O=C(CCC(CCC(=O)NCCc1c[nH]c2ccccc12)(CCC(=O)NCCc1c[nH]c2ccccc12)NC(=O)CCOCC(COCCC(=O)NC(CCC(=O)NCCc1c[nH]c2ccccc12)(CCC(=O)NCCc1c[nH]c2ccccc12)CCC(=O)NCCc1c[nH]c2ccccc12)(COCCC(=O)NC(CCC(=O)NCCc1c[nH]c2ccccc12)(CCC(=O)NCCc1c[nH]c2ccccc12)CCC(=O)NCCc1c[nH]c2ccccc12)COCCC(=O)NC(CCC(=O)NCCc1c[nH]c2ccccc12)(CCC(=O)NCCc1c[nH]c2ccccc12)CCC(=O)NCCc1c[nH]c2ccccc12)NCCc1c[nH]c2ccccc12 | ROD | CD4+ T-cell | MTS | 77 µM
N#CC(c1ccc(F)cc1)S(=O)c1cccc[n+]1[O-] | ROD | CEM | syncytia | >0.8 µg/mL
Nc1sccc1S(=O)(=O)c1ccccc1[N+](=O)[O-] | ROD | CEM + CEM/O | cytopathic effect / MTT | >20 µg/mL
O=S(=O)(Cc1c(Cl)c(Cl)c(Cl)c(Cl)c1Cl)c1cccc[n+]1[O-] | ROD | MAGI | β-galactosidase | 2 µg/mL
CC(c1ccc(F)cc1)S(=O)c1cccc[n+]1[O-] | ROD | CEM | syncytia | >0.16 µg/mL

3 of the rows above, restated:

C=C1[C@H](CO)[C@H]1Cn1cnc2c(N)nc(N)nc21 ; result: >100 µM
C=C1[C@H](CO)[C@H]1Cn1cnc2ncnc(Cl)c21 ; result: >100 µM
O=C(O)C1=CC(=C(c2ccc(O)c(C(=O)O)c2)c2ccc(O)c(C(=O)O)c2)C=C(Cc2ccc(O)c(C(=O)O)c2)C1=O ; strain or isolate: ROD ; cells: MOLT-4/HUT-78 ; read by: syncytia ; result: 1 µg/mL

Conditions beyond the fields shown may differ between rows. Blank or dashed fields: not listed here.